Measured values from several laboratories, pooled; numbers as filed in NIAID ChemDB.

Shared fields: cytotoxicity tests; cell line: MT-4; method: MTT; read-out: CC50

Lines come from different laboratories, so protocols vary.

{"SMILES": "CC(c1cc(=O)[nH]c(SCC(=O)c2ccccc2)n1)C1CCCCC1", "result": "267 µM"}
{"SMILES": "COc1ccc2nc3cc(Cl)ccc3c(NCCN3CCOCC3)c2c1", "result": "1.8 µM"}
{"SMILES": "Cc1ccnc2c1NC(=O)c1cccnc1N2C1CC1", "result": ">2 µg/mL"}
{"SMILES": "O=C(Cc1ccc(CC(=O)NCCN2CCCCC2)cc1)NCCN1CCCCC1", "result": ">302 µM"}
{"SMILES": "CCCCNC(=S)N/N=C(\\C)c1nc2ccc(Cl)cc2[nH]1", "result": "1.06 µg/mL"}
{"SMILES": "COc1ccc2nc3cc(Cl)ccc3c(NC(CO)C(C)C)c2c1", "result": "0.7 µM"}
{"SMILES": "c1cc(CNCCN2CCCCC2)ccc1CNCCN1CCCCC1", "result": "32.6 µM"}
{"SMILES": "NC1=Nc2c(ncn2CCCCC(F)(F)P(=O)(O)O)C(=O)C1", "result": ">500 µM"}
{"SMILES": "C(=N\\c1nc2ccccc2s1)/c1ccccc1", "result": ">100 µM"}
{"SMILES": "Cc1c(Cc2c(Cl)cccc2Cl)nc(S(=O)(=O)Cc2ccc([N+](=O)[O-])cc2)[nH]c1=O", "result": ">53 µM"}
{"SMILES": "Cc1cn([C@H]2C[C@H](N=[N+]=[N-])[C@@H](COP(=O)(Nc3cc(C(=O)NCCC(=N)N)n(C)c3)OC3CCCCC3)O2)c(=O)[nH]c1=O", "result": "193 µM"}
{"SMILES": "CNc1nc(Nc2c(C)cc(C)cc2C)nc(NC2CCN(Cc3ccc(C(N)=O)cc3)CC2)n1", "result": "27.39 µM"}
{"SMILES": "COc1ccc(CS(=O)(=O)c2nc(Cc3c(Cl)cccc3Cl)c(C)c(=O)[nH]2)cc1", "result": "2.8 µM"}
{"SMILES": "Cc1ccc(-c2ccc3c(c2)C=C(C(=O)Nc2ccc(C[N+](C)(C)C4CCOCC4)cc2)CCC3)cc1", "result": ">0.2 µg/mL"}
{"SMILES": "CCc1c(Sc2cccc3ccccc23)n(COCc2cccc(F)c2)c(=O)[nH]c1=O", "result": "31.47 µM"}
{"SMILES": "NC1=Nc2c(ncn2CCC(/C=C/P(=O)(O)O)CO)C(=O)C1", "result": "1235 µM"}
{"SMILES": "CCc1c(Sc2ccc3ccccc3c2N)n(COCc2ccccc2)c(=O)[nH]c1=O", "result": ">37.88 µM"}
{"SMILES": "Cn1cc(NC(=O)c2cc(NC(=O)c3cc([N+](=O)[O-])cn3C)cn2C)cc1C(=O)NCCC(=N)N", "result": "55 µM"}
{"SMILES": "CCc1c(Sc2ccc3ccccc3c2N)n(COC)c(=O)[nH]c1=O", "result": "180 µM"}
{"SMILES": "CC1CCCCN1CCCNCc1ccc(CC(=O)NCCCN2CCOCC2)cc1", "result": ">58.05 µM"}
{"SMILES": "COC[C@@H](c1ccc(C(F)(F)F)cc1)N1CCN(C2(C)CCN(C(=O)c3c(C)ncnc3C)CC2)C[C@@H]1C", "result": ">5 µM"}
{"SMILES": "COc1ccc(-c2csc(/N=C/c3ccccc3)n2)cc1", "result": "≥100 µM"}
{"SMILES": "CCc1c(C(C)C2CCCCC2)nc(SCC(=O)c2ccccc2)[nH]c1=O", "result": "194 µM"}
{"SMILES": "Cc1cc(C)c(Nc2ccc([N+](=O)[O-])c(NC3CCN(Cc4ccc(S(C)(=O)=O)cc4)CC3)n2)c(C)c1", "result": "21 µM"}
{"SMILES": "COc1ccc2nc3cc(Cl)ccc3c(NCCC[C@@H]3CCCN4CCCC[C@H]34)c2c1", "result": "1.3 µM"}
{"SMILES": "CC(C)c1c(Sc2cccc3ccccc23)n(COCc2ccc(F)cc2)c(=O)[nH]c1=O", "result": "30.23 µM"}
{"SMILES": "CC1CCCCN1CCCNCCc1ccc(CNCCCN2CCCCC2C)cc1", "result": ">58.32 µM"}
{"SMILES": "COc1ccc2nc3cc(Cl)ccc3c(NN3CCN(C)CC3)c2c1", "result": "8 µM"}
{"SMILES": "Cc1cc(C)c(Oc2ccc([N+](=O)[O-])c(NC3CCN(Cc4ccc(S(C)(=O)=O)cc4)CC3)n2)c(C)c1", "result": "24 µM"}
{"SMILES": "COc1ccc2nc3cc(Cl)ccc3c(NCCN3CCCC(O)C3)c2c1", "result": "1.5 µM"}
{"SMILES": "Cc1cc(C#N)cc(C)c1Oc1ccc(N)c(NC2CCN(Cc3ccncc3)CC2)n1", "result": "31 µM"}
{"SMILES": "c1cc(CNCCN2CCCC2)ccc1CNCCN1CCCC1", "result": ">75.6 µM"}
{"SMILES": "Cc1cn([C@H]2C=C[C@@H](CO)O2)c(=O)[nH]c1=O", "result": "299 µM"}
{"SMILES": "COc1ccc(C=Nc2nsc3ccccc23)cc1", "result": "7 µM"}
{"SMILES": "Cc1cn([C@@H]2C=C[C@H](COC(=O)NCCCCNC(=O)OC[C@H]3O[C@@H](n4cc(C)c(=O)[nH]c4=O)C[C@@H]3N=[N+]=[N-])O2)c(=O)[nH]c1=O", "result": "186 µM"}
{"SMILES": "COc1ccc2nc3cc(Cl)ccc3c(NCCCN3CCOCC3)c2c1", "result": "1.9 µM"}
{"SMILES": "Cc1cn([C@H]2C=C[C@@H](COP(=O)(Nc3cc(C(=O)NCCC(=N)N)n(C)c3)OC(C)C)O2)c(=O)[nH]c1=O", "result": "223 µM"}
{"SMILES": "NC1=Nc2c(ncn2CCCCCP(=O)(O)O)C(=O)C1", "result": ">320 µM"}
{"SMILES": "O=C(Cc1ccc(CNCCCN2CCOCC2)cc1)NCCCN1CCOCC1", "result": ">59.73 µM"}
{"SMILES": "CC(C)Nc1cccnc1N1CCN(C(=O)c2cc3cc(NS(C)(=O)=O)ccc3[nH]2)CC1", "result": ">20 µM"}
{"SMILES": "Cc1ccc2snc(N=Cc3ccccc3O)c2c1", "result": "7 µM"}
{"SMILES": "C/C(=N\\NC(N)=S)c1nc2ccc(Cl)cc2[nH]1", "result": "2.58 µg/mL"}
{"SMILES": "COc1ccc(C(=O)CSc2nc(C(C)C3CCCCC3)c(C)c(=O)[nH]2)cc1", "result": "28 µM"}
{"SMILES": "C=COC(=O)OC[C@@H]1C=C[C@H](n2cc(C)c(=O)[nH]c2=O)O1", "result": "217.6 µM"}
{"SMILES": "COc1ccc(C(=O)CSc2nc(C(C)CC3CCCCC3)c(C)c(=O)[nH]2)cc1", "result": "43 µM"}
{"SMILES": "Cc1cn([C@H]2C[C@H](N=[N+]=[N-])[C@@H](CO)O2)c(=O)[nH]c1=O", "result": "168.5 µM"}
{"SMILES": "O=C(Cc1ccc(CC(=O)NCCCN2CCCCC2)cc1)NCCCN1CCCCC1", "result": ">282 µM"}
{"SMILES": "Cc1c(Cc2c(Cl)cccc2Cl)nc(SCc2ccc(C#N)cc2)[nH]c1=O", "result": ">60 µM"}
{"SMILES": "CCc1c(CCC2CCCCC2)nc(SCC(=O)c2ccc(O)cc2)[nH]c1=O", "result": "132 µM"}
{"SMILES": "COc1ccc(CSc2nc(Cc3ccc(F)cc3)c(C)c(=O)[nH]2)cc1", "result": "8.9 µM"}
{"SMILES": "Cc1cn([C@@H]2C=C[C@H](COC(=O)OC[C@H]3O[C@@H](n4cc(C)c(=O)[nH]c4=O)C[C@@H]3N=[N+]=[N-])O2)c(=O)[nH]c1=O", "result": "174 µM"}

CCn is the concentration with n% toxicity to the cells.